Test results reported in patent US20230220054A1 (published 2023).

Molecular target: SARS-CoV-2 S1 RBD (SARS-CoV-2, UniProt P0DTC2 319-541)
Experiment: BLI kinetics

B1: 1B-Fc (monoclonal VHH-Fc of Covid19-1B6) (antibody, V domains shown)
VH: EVQLVESGGGLVQPGGSLRLSCAASGSIFGINVMAWYRQAPGKGLEWISTIYNDASNTDYADSVKGRFTVSRDNSKNTLYLQMNSLRAEDTAKYYCFAESMRQWWGQGNQVTVSS
  Kd: 1.64 nM
